For series [1], the target named is T1, EBNA-1 C-terminal domain beta-galactosidase fusion (Epstein-Barr virus) (UniProt P03211).
T1 sequence (looked up): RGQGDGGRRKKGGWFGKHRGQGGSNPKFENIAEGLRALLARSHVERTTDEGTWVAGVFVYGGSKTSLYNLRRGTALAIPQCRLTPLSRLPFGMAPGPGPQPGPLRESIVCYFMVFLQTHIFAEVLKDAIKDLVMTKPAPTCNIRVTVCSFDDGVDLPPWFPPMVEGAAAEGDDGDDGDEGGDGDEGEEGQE
The series can be described thus: binding assay. To be noted: plaque filter screening; protein in a lysate after overexpression; protein details: beta-galactosidase fusion, lambda EB lysogen.

In a further series the test system is NF-kappaB (Homo sapiens). The series can be described thus: binding assay. To be noted: CITED direct binding per footnote; protein in an extract; protein details: PHA/PMA-stimulated Jurkat nuclear extract; cited from earlier work.

Consider two sequences from patent US20040214757.

Results from cells or extracts need not show a direct contact. For some assays here: Where a protein sequence is shown, tags need not be part of it. For some assays here: For at least one entry, the source does not settle the construct or the ends of the probe.

With “AGATTAGGATAGCATATGCTACCCAGATAT (double strand) [EBNA-1 consensus 30-mer]”, the binding result in series [1] is given as “binds”. “AGGGACTTTCC (double strand) [HIV-1 (-105) kappaB site]”: the binding result with NF-kappaB (Homo sapiens) is reported as “binds”.
